Assays:
T. brucei TbAT1-KO = conditions: cited from earlier work
L. mexicana SUPKO = format: cell-based, Leishmania mexicana; conditions: Resistance Factor = EC50(SUPKO)/EC50(Cas9)
Procedure: EC50 values were determined by plotting to an equation for a sigmoid curve with variable slope (GraphPad Prism 8). All values were the average of at least three independent determinations on different days.

Structure (SMILES): Nc1ncnc2c1ccn2[C@@H]1O[C@H](CO)[C@@H](O)[C@H]1O [Tubercidin, 7-deazaadenosine]
- resistance factor in TbAT1-KO compared to the wild type (T. brucei TbAT1-KO): 28.7
- resistance of the TbAT1-KO strain (T. brucei TbAT1-KO): 77 fold
- SUPKO RF (Cas9) (L. mexicana SUPKO): >230

— PMC9960827, “Cloning and Characterization of Trypanosoma congolense and T. vivax Nucleoside Transporters Reveal the Potential of P1-Type Carriers for the Discovery of Broad-Spectrum Nucleoside-Based Therapeutics against Animal African Trypanosomiasis” (International Journal of Molecular Sciences, 2023)
